From patent US20120027677A1 come the findings set out here.

For the assay, the target named is PrP^Sc, pathogenic form of the human prion protein (from CJD brain homogenate) (human), P04156.

As for GGGQWNKPSKPKTN [peptide of SEQ ID NO: 14], the Mean (% of 68) is 5.58% and the Mean (ELISA signal) stood at 4.74 RLU.
